Where “and” joins values, the source holds several entries; their conditions need not be identical. Identical values can stand only once.

The target in experiment [1] is T1, human Calmodulin-1 (human, UniProt P0DP23 1-149). As to the kind of experiment: SPR. (In general: In SPR one partner is held on a chip, and binding of the other changes the refractive index at the surface.)
In experiment [2] the target is T1, human Calmodulin-1. Put plainly: SPR. The source holds these as a separate data set.

B1: HIV-1 MA protein from clade B (LAI), full-length (natural protein)
chain: MGARASVLSGGELDRWEKIRLRPGGKKKYKLKHIVWASRELERFAVNPGLLETSEGCRQILGQLQPSLQTGSEELRSLYNTVATLYCVHQRIEIKDTKEALDKIEEEQNKSKKKAQQAAADTGHSSQVSQNY
B1 had a koff in experiment [1] of 0.309 s⁻¹.

B2: HIV-1 MA protein from clade A1 (92UG037.1), full-length (natural protein)
chain: MGARASVLSGGKLDAWEKIRLRPGGKKKYRLKHLVWASRELERFALNPSLLETTEGCQQIMEQLQSALRTGTEELRSLYNTVATLYCVHQRIEVKDTKEALDKIEEIQKKSKQKTQQAAADTGSSSKVSQNY
Take B2: in experiment [1], the koff came out at 0.397 s⁻¹. In addition, the Kd in experiment [2] is 55.5 µM and 56.3 µM.

B3: HIV-1 MA protein from clade C (92BR025.8), full-length (natural protein)
chain: MGARASILRGGKLDAWERIKLKPGGKKHYMMKHLVWASRELERFALDPGLLETSEGCKQIMKQLQPALQTGTKELISLHNTVATLYCVHEKIDVRDTKEALDKIKEEQNKSQQKTQQAEAADKGKVSQNY
B3 came in with a koff in experiment [1] of 0.474 s⁻¹. The molecule also showed a Kd in experiment [2] of 87.9 µM.

B4: HIV-1 MA protein from clade A2 (CDKTB48), full-length (natural protein)
chain: MGARASVLSGGKLEAWEKIRLRPGGKKKYRLKHLVWASRELEKFSINPSLLETETGCRRIFGQLQPALETGTEELRSLYNTIAVLYFVHQKIEVKDTKEALDKIEEEQNKCKQKTQQAAADTGSSSSQNYRGSSSQNY
The molecule B4 gave a koff in experiment [1] of 0.566 s⁻¹. Moreover, the Kd in experiment [2] was 52.3 µM and 49.3 µM.

For orientation: koff means the rate constant with which the complex falls apart. A high value points to fast dissociation. Usually Kd stands for the free concentration of one partner at which half of the binding sites on the other are occupied at equilibrium, for simple one-to-one binding.
